Measured values from several laboratories, pooled; numbers as filed in NIAID ChemDB.

Common to all: whole-cell or culture tests; agent: Varicella zoster virus; cells: HEL; measure: EC50

Conditions beyond the fields shown may differ between rows. An empty or dashed field is not shown. ECn: concentration that inhibits the pathogen or its effect by n%.

| smiles | strain | read by | value |
|---|---|---|---|
| OC[C@H]1O[C@@H](c2cc(Br)c(F)cc2F)C[C@@H]1O | (TK-)07/1 | plaque count | >200 µM |
| O=c1[nH]c(=O)n([C@H]2C[C@H](O)[C@@H](CO)O2)cc1/C=C/Br | 9/84-C | cytopathic effect / ELISA | >100 µM |
| Nc1ncnc2c1ncn2CCCC(O)CF | YS/R (TK-) | cytopathic effect | >50 µg/mL |
| Cc1c(Br)cc(Br)c2ncc(CSCc3ccccc3)n12 | YS (TK+) | plaque count | >50 µg/mL |
| Cc1cn(CCCC(O)CF)c(=O)[nH]c1=O | 07-01/TK- | cytopathic effect | >50 µg/mL |
| O=C1OC(C(O)Cn2ccc(=O)[nH]c2=O)C(OCc2ccccc2)=C1OCc1ccccc1 | TK+ |  | >50 µg/mL |
| Nc1nc2c(ncn2COC(CO)CO)c(=O)[nH]1 | OKA (TK+) | plaque count | 0.52 µM |
| O=[N+]([O-])c1cc([C@H]2C[C@H](O)[C@@H](CO)O2)c(F)cc1F | (TK+)/OKA | plaque count | 87 µM |
| CC(C)(C)c1cn([C@H]2C[C@H](O)[C@@H](CO)S2)c(=O)[nH]c1=O | OKA YS | plaque count | >170 µM |
| Cc1cc([C@H]2C[C@H](O)[C@@H](CO)O2)c(F)cc1F | (TK-)/YS/R | plaque count | >200 µM |
| CC1(C)[C@@H](CCO)C[C@H]1n1nnc2c(N)ncnc21 | TK+/YS | plaque count | >20 µg/mL |
| Cc1cc([C@@H]2C[C@H](O)[C@@H](CO)O2)c(F)cc1Cl | TK+/YS | plaque count | >200 µM |
| CCOc1ccc(-c2cc3cn([C@H]4C[C@H](O)[C@@H](CO)O4)c(=O)nc3o2)cc1 | OKA | cytopathic effect | <0.5 µM |
| Nc1ncnc2c1ncn2C[C@@H](CO)OCP(=O)(O)O | 07/1 (TK-) | cytopathic effect | 0.004 µg/mL |
| O=c1[nH]c(=O)n([C@H]2C[C@H](O)[C@@H](CO)O2)cc1-c1ccc(Br)s1 | OKA (TK+) | plaque count | 0.072 µM |
| Nc1ncnc2c1ncn2[C@@H]1C[C@H](CO)[C@@H](O)[C@@H]1O | 9/84 | cytopathic effect / ELISA | 27 µM |
| COc1ccc2c(c1)OC1(C=C2)N(C)c2ccc(Cl)cc2C1(C)C | OKA (TK+) | plaque count | 3.7 µM |
| O=C1OC(C(O)Cn2cc(F)c(=O)[nH]c2=O)C(OCc2ccccc2)=C1OCc1ccccc1 | TK+ |  | >50 µg/mL |
| Nc1nc2c(ncn2COC(CO)CO)c(=O)[nH]1 | 9/84 | cytopathic effect / ELISA | 41 µM |
| OC[C@H]1O[C@H](c2cc(I)c(F)cc2F)C[C@@H]1O | (TK+)/OKA | plaque count | >200 µM |
| CN1c2ccc([N+](=O)[O-])cc2C(C)(C)C12C=Cc1ccccc1O2 | 07/1 (TK-) | plaque count | >9.9 µM |
| CC(=O)OCCOCN1c2nc(Cc3ccccc3)[nH]c2C(N)=NS1(=O)=O | 07/1 (TK-) | plaque count | >50 µg/mL |
| Nc1nc2c(ncn2CCC(CO)CO)c(=O)[nH]1 | 13 isolates | plaque count | 3.6 µM |
| O=C(O)P(=O)(O)O | Clinical isolate VZV-24 | cytopathic effect | 69 µM |
| CC#Cc1cn([C@@H]2O[C@H](CO)[C@@H](O)[C@@H]2O)c(=O)[nH]c1=O | YS/R (TK-) | plaque count | >177 µM |
| Nc1nc2c(ncn2CCC(O)CO)c(=O)[nH]1 | 9/84-A | cytopathic effect / ELISA | >400 µM |
| O=C(O)CP(=O)(O)O | Oka acyclovir-resistant | cytopathic effect | 45.7 µM |
| Nc1ncnc2c1ncn2[C@@H]1C=C(CO)[C@@H](O)[C@H]1O | 07/1 YS/R (TK-) | cytopathic effect | >20 µg/mL |
| CC1(C)[C@@H](CCO)C[C@H]1n1nnc2c(N)nc(N)nc21 | TK+/YS | plaque count | >20 µg/mL |
| CCCCCCCOc1ccc(-c2cc3cn([C@H]4C[C@H](O)[C@@H](CO)O4)c(=O)nc3o2)cc1 | YS | cytopathic effect | <0.5 µM |
| Cc1cn(C(CF)CCCO)c(=O)[nH]c1=O | 07-01/TK- | cytopathic effect | >50 µg/mL |
| CC1(C)[C@@H](CCO)C[C@H]1n1nnc2c(=O)[nH]cnc21 | (TK-)/YS/R | plaque count | >20 µg/mL |
| Nc1ncnc2c1ncn2C[C@@H](CO)OCP(=O)(O)O | 13 isolates | plaque count | 0.14 µM |
| NC1=NS(=O)(=O)N(Cc2ccccc2)c2nc(Cc3ccccc3)[nH]c21 | 07/1 (TK-) | plaque count | 12 µg/mL |
| COC(=O)[C@H](C)NP(=O)(OC[C@H]1O[C@@H](n2cc(/C=C/Br)c(=O)[nH]c2=O)C[C@@H]1O)Oc1ccccc1 | 07 (TK-) | cytopathic effect | 139 µM |
| O=c1[nH]c(=O)n([C@H]2C[C@H](O)[C@@H](CO)O2)cc1/C=C/Br | TK+/YS | plaque count | 0.008 µM |
| CN1c2ccc(Cl)cc2C(C)(C)C12C=Nc1c(ccc3ccccc13)O2 | OKA (TK+) | plaque count | >8.8 µM |
| CCCCCCOc1ccc(-c2cc3cn([C@H]4C[C@H](O)[C@@H](CO)O4)c(=O)nc3o2)cc1 | YS/R (TK-) | cytopathic effect | >50 µM |
| Nc1nc(N)c2ncn(CCOCP(=O)(O)O)c2n1 | 13 isolates | plaque count | 5.1 µM |
| Cc1cc([C@@H]2C[C@H](O)[C@@H](CO)O2)c(F)cc1F | TK+/YS | plaque count | >200 µM |
| Cc1c(Br)cc(Br)c2ncc(CSCc3ccco3)n12 | 07/1 (TK-) | plaque count | >20 µg/mL |
| O=C1O/C(=C\Cn2ccc(=O)[nH]c2=O)C(OCc2ccccc2)=C1O | TK- |  | >50 µg/mL |
| Nc1ncnc2c1ncn2C[C@H](O)CO | YS/R (TK-) | cytopathic effect | 200 µg/mL |
| COc1ccc(-c2cc3cn([C@H]4C[C@H](O)[C@@H](CO)O4)c(=O)nc3o2)cc1 | YS | cytopathic effect | <0.5 µM |
| Nc1ncnc2c1ncn2[C@@H]1C[C@H](CO)[C@@H](O)[C@@H]1O | YS-W3 G19 H3 | plaque count | 0.8 µg/mL |
| Nc1ccn(C[C@@H](CO)OCP(=O)(O)O)c(=O)n1 | YS (TK+) | plaque count | 0.58 µM |
| O=c1[nH]c(=O)n([C@H]2C[C@H](O)[C@@H](CO)O2)cc1C1CC1 | OKA YS | plaque count | 166 µM |
| Nc1nc2c(ncn2[C@@H]2O[C@H](CO)[C@H]2CO)c(=O)[nH]1 | (TK-)/YS/R | plaque count | 1.8 µg/mL |
| CC(C)CS[C@H]1C[C@@H](n2cnc3c(N)ncnc32)[C@H](O)[C@@H]1O | OKA | cytopathic effect | >200 µg/mL |
| NC1=NC2C(C=CN2CC(CO)CCO)C(=O)N1 | 07/1 (TK-) | plaque count | 71.8 µM |
| Cc1cc([C@H]2C[C@H](O)[C@@H](CO)O2)c(Cl)cc1F | (TK-)/YS/R | plaque count | >200 µM |
| O=c1[nH]c(=O)n([C@H]2C[C@H](O)[C@@H](CO)O2)cc1I | 3 | plaque count | 0.78 µg/mL |
| O=c1[nH]c(=O)n([C@H]2C[C@H](O)[C@@H](CO)O2)cc1/C=C/Cl | 13 isolates | plaque count | 0.015 µM |
| Cc1c(Br)cc(Br)c2ncc(CSCc3cccs3)n12 | 07/1 (TK-) | plaque count | >2 µg/mL |
| O=c1[nH]c(=O)n([C@H]2C[C@H](O)[C@@H](CO)S2)cc1C1CCCCC1 | OKA YS | plaque count | ≥125 µM |
| CC1(C)[C@@H](CCO)C[C@H]1n1nnc2c(Cl)nc(N)nc21 | (TK-)/YS/R | plaque count | >20 µg/mL |
| COC(=O)[C@H](C)NP(=O)(OC[C@H]1O[C@@H](n2cc(/C=C/Br)c(=O)[nH]c2=O)C[C@@H]1O)Oc1ccc(Cl)cc1 | 07 (TK-) | cytopathic effect | >50 µM |
| CC1(C)c2ccccc2N(c2ccccc2)C12C=Nc1c(ccc3ccccc13)O2 | OKA (TK+) | plaque count | >8.2 µM |
| Cc1cc([C@@H]2C[C@H](O)[C@@H](CO)O2)c(Cl)cc1F | (TK-)07/1 | plaque count | >200 µM |
| OC[C@H]1O[C@@H](c2cc(C(O)C(I)I)c(F)cc2F)C[C@@H]1O | OKA (TK+) | plaque count | 130 µg/mL |
| Nc1nc(N)c2ncn([C@@H]3O[C@H](CO)[C@H]3CO)c2n1 | TK+/YS | plaque count | 3.4 µg/mL |
| OC[C@H]1O[C@@H](c2cc(C(O)CBr)c(F)cc2F)C[C@@H]1O | 07/1 (TK-) | plaque count | >20 µg/mL |
| Nc1nc2c(ncn2CCC(CO)CO)c(=O)[nH]1 | Oka acyclovir-resistant | cytopathic effect | 26.9 µM |
| CCCc1cn([C@H]2C[C@H](O)[C@@H](CO)O2)c(=O)[nH]c1=O | OKA YS | plaque count | >185 µM |
| Nc1ncnc2c1ncn2[C@@H]1O[C@H](CO)[C@H]1CO | (TK-)/YS/R | plaque count | 46 µg/mL |
| O=c1[nH]c(=O)n([C@@H]2O[C@H](CO)[C@@H](O)[C@@H]2O)cc1/C=C/Br | Oka BVDU-resistant | cytopathic effect | >57 µM |
| COc1ccc(CSCc2cnc3c(Br)cc(Br)c(C)n23)cc1 | OKA (TK+) | plaque count | >5 µg/mL |
| CN1c2ccccc2C(C)(C)C12C=Nc1c(ccc3ccccc13)O2 | 07/1 (TK-) | plaque count | 5.1 µM |